The values that follow come from ChEMBL document CHEMBL5108080 (J Med Chem, 2022).

Series [1] can be described thus: Selectivity index, ratio of CC50 for human A549 cells to IC50 for group 2 influenza A H7N1 pseudotyped virus infected in A549 cells. In kind it is toxicity, cell-based.
The nature of series [2]: Selectivity index, ratio of CC50 for human A549 cells to IC50 for […] influenza A H5N1 pseudotyped virus infected in A549 cells. It counts as toxicity, cell-based.
A short description of series [3]: Selectivity index, ratio of CC50 for human A549 cells to EC50 for group 2 influenza A virus H3N2 (A/Victoria361/2011) infected in human A549 cells.
A short description of series [4]: Selectivity index, ratio of CC50 for human A549 cells to IC50 for VSV pseudotyped virus infected in A549 cells. In kind it is toxicity, cell-based.
A short description of series [5]: Selectivity index, ratio of CC50 for human A549 cells to EC50 for group 2 influenza A virus H3N2 (A/Hong Kong-11/1968) infected in human A549 cells.
A short description of series [6]: Selectivity index, ratio of CC50 for human A549 cells to EC50 for group 2 influenza A virus LPAI H7N7 (A/Netherlands/219/2003) infected in human A549 cells.

The structures appear in SMILES notation. Some results are limits rather than exact numbers.

Take `Fc1ccc(-c2nc3ncccn3c2NC2CCCCC2)cc1`: the Ratio CC50/IC50 amounted to 4300 in series [1], 2 in series [2] and 1 in series [4]. Besides, the Ratio CC50/EC50 in series [3] was 230; in series [5], 310.
Consider `Brc1ccc(-c2nc3ncccn3c2NC2CCCCC2)cc1`, for which the Ratio CC50/IC50 in series [1] is > 71; in series [2], > 1; in series [4] it was > 2. Besides, the figures for the Ratio CC50/EC50 in series [6], in series [3] and in series [5] were > 500, > 67 and > 520, respectively.
Take `COc1ccc(-c2nc3ncccn3c2NC2CCCCC2)cc1`: the Ratio CC50/IC50 in series [1] is > 2700; in series [2], < 1; in series [4] it was 1. For the same compound, the Ratio CC50/EC50 in series [3] is > 150; in series [5] it was > 3300.
As for `CCOC(=O)C1=C[C@@H](OC(CC)CC)[C@H](NC(C)=O)[C@@H](N)C1` [OSELTAMIVIR], the Ratio CC50/EC50 is < 10 in series [3] and > 4500 in series [5].
Take `c1ccc(-c2nc3ncccn3c2NC2CCCCC2)cc1`: the values for the Ratio CC50/IC50 in series [1], in series [2] and in series [4] were 1500, 2 and 1, respectively. The Ratio CC50/EC50 was determined as 400 in series [6], 130 in series [3] and 1400 in series [5].
As to `Cc1cc(Br)ccc1-c1nc2ncccn2c1NC1CCCCC1`, the Ratio CC50/IC50 in series [1] amounted to 260; in series [2] it was 1; in series [4] it was 1. Besides, the Ratio CC50/EC50 in series [5] amounted to 130.
With `Oc1ccc(-c2nc3ncccn3c2NC2CCCCC2)cc1`, the Ratio CC50/IC50 was > 1900 in series [1], > 2 in series [2] and > 1 in series [4]. Moreover, the Ratio CC50/EC50 was > 67 in series [3] and > 270 in series [5].
